PSTVd loop 6 mutant pool in Nicotiana benthamiana

The pool varies loop 6 of the PSTVd intermediate strain in the pattern UNNNCGNNNG; wild type is UGACCGCGAG (upper and lower strand joined, each 5' to 3', the first 5 letters being the upper strand, closing pairs included).

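A pool of all variants was put on leaves of three Nicotiana benthamiana plants. Progeny were sequenced from the inoculated region (day 5), the margin of the inoculated leaf (day 10) and systemic leaves (day 12).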

Values are reads per thousand in the sample; higher means more abundant, 0 means not found. Each value is the mean of three plants. "Pool" is the share in the plasmid pool used as inoculum, on the same scale. The inoculated region was read from the minus strand, the other sites from the plus strand.

sequence,pool,inoculated region,leaf margin,systemic leaves
UCUACGCCAG,0.144,0.0894,0.00920,0
UCGCCGAUGG,0.418,0.125,0.0176,0
UUGCCGGGGG,0.235,0.0594,0,0
UUAUCGUAUG,0.340,0.101,0.0644,0
UCCCCGCCUG,0.327,0.149,0.723,0
UCCGCGUGGG,0.209,0.119,0,0
UUACCGCCAG,0.144,0.768,0.0754,0
UUGGCGCUAG,0.301,0.107,0.00773,0
UUCGCGGAUG,0.183,0.0959,0.00920,0.00673
UGAACGUGUG,0.288,0.599,0.0408,0
UGUGCGUAAG,0.235,0.0770,0,0
UUCUCGUUGG,0.340,0.0716,0,0
UAUGCGGAUG,0.301,0.0655,0.00773,0
UAGUCGGAUG,0.131,0.0592,0.0184,0
UUAGCGACCG,0.183,0.125,0.00920,0
UUUUCGAGCG,0.170,0.101,0.00773,0
UUAUCGCUUG,0.222,0.0716,0,0
UAUUCGGGUG,0.458,0.608,0.0860,0.00684
UUGACGUCCG,0.196,0.0840,0.0247,0
UCAACGUCGG,0.118,0.0413,0,0
UCCUCGAGAG,0.196,0.0894,0.00920,0
UCACCGCACG,0.170,0.663,0.0971,0
UUUCCGUCAG,0.275,0.106,0.0232,0
UUAUCGCCGG,0.235,0.0888,0.00920,0
UGCCCGCUCG,0.222,0.0768,0.00773,0
UUUUCGUUAG,0.222,0.0762,0,0
UUGUCGAAUG,0.353,0.0956,0,0
UGCGCGCAAG,0.0392,0.143,0.0309,0
UUCGCGGUCG,0.222,0.107,0,0
UCCACGAGCG,0.222,0.143,0.0184,0
UUUCCGACGG,0.222,0.102,0.155,0
UAGACGAGCG,0.157,0.632,0.0452,0
UUGGCGGGUG,0.261,0.0889,0.0155,0.00599
UGGUCGAGAG,0.209,0.0949,0.0184,0.0269
UCUUCGUCUG,0.248,0.120,0.00920,0
UUCACGGGGG,0.131,0.132,0,0
UGCUCGCGGG,0.196,0.131,0,0
GGACCGCGAG,0.0261,0.226,0.666,0.964
UACACGGGAG,0.105,0.0955,0.0169,0
UACACGGAGG,0.118,0.0895,0.00920,0
UUGACGAGUG,0.288,0.125,0,0
UAGGCGUAGG,0.275,0.0945,0.00773,0
UGCUCGGCAG,0.261,0.0885,0.00773,0.0407
UGCCCGCCGG,0.196,0.108,0.00920,0
UUCACGUAAG,0.157,0.0715,0.00920,0
UGCCCGUAAG,0.131,0.643,0.0751,0
UAGUCGCUUG,0.183,0.0708,0,0
UAGACGGCAG,0.248,0.0534,0,0
UGAGCGGGGG,0.157,0.643,0.0744,0.0472
UCAACGUACG,0.235,0.631,0.0584,0
UGGCCGUUAG,0.327,0.185,0,0
UAACCGAAAG,0.157,0.667,0.110,0.0404
UUUUCGUAGG,0.248,0.0475,0.00773,0
UAGACGACUG,0.340,0.0597,0.00773,0
UACGCGGGGG,0.0261,0.101,0,0
UGCGCGUGGG,0.196,0.0717,0,0
UGAUCGUGAG,0.275,0.138,0,0
UGAUCGUUAG,0.471,0.101,0.0239,0.00684
UGAUCGAUGG,0.340,0.113,0.00773,0
UCUCCGCGAA,0.0131,0.609,0.0544,0
UAGACGGGCG,0.118,0.655,0.0852,0.0262
UUGGCGUAUG,0.431,0.106,0.120,0

The last 5 entries again:

- UGAUCGUUAG (pool 0.471): inoculated region 0.101; leaf margin 0.0239; systemic leaves 0.00684
- UGAUCGAUGG (pool 0.340): inoculated region 0.113; leaf margin 0.00773; systemic leaves 0
- UCUCCGCGAA (pool 0.0131): inoculated region 0.609; leaf margin 0.0544; systemic leaves 0
- UAGACGGGCG (pool 0.118): inoculated region 0.655; leaf margin 0.0852; systemic leaves 0.0262
- UUGGCGUAUG (pool 0.431): inoculated region 0.106; leaf margin 0.120; systemic leaves 0

Sequences that differ at fixed positions probably stem from PCR or sequencing errors, and defective variants can be carried along by functional ones. For reference, wild type rose from 20.7 per thousand in the pool to 195, 198, 203 (inoculated region), 629, 591, 734 (leaf margin) and 942, 870, 868 (systemic leaves). With 36,220-57,551 reads a sample, very low values are single reads.

Values reported by Wu et al. 2024 (doi:10.1371/journal.ppat.1012142).